The results in this text go back to patent US4181732A, “1-Branched-alkylcarbonyl-3-(3,5-dihalophenyl)imidazolidine-2,4-diones” (Sumitomo Chemical Company, Limited, priority 1977, dated 1980).

Experiment [1] relates to black spot of pear (Alternaria kikuchiana). As to the kind of experiment: Protective activity test on black spot of pear. Type of experiment: in vivo. Conditions: 500 ppm active ingredient; pear var. 20-Seiki, sprayed 7 days before inoculation; no treatment 77.8.
The test system of experiment [2] is Alternaria leaf spot of apple (Alternaria mali). As to the kind of experiment: Protective activity test on Alternaria leaf spot of apple. It counts as in vivo. Conditions: 500 ppm active ingredient; apple var. Indo, sprayed 6 days before inoculation; no treatment 79.6.

As to `O=C1C2CC=CCC2C(=O)N1SC(Cl)(Cl)C(Cl)Cl` (centres unmarked), the Disease severity in experiment [1] amounted to 24.2%; in experiment [2], 27.1%.
